Anti-infective test results gathered from many reports (values: NIAID ChemDB through PubChem).

Common to all: tests in culture; organism: Mycobacterium tuberculosis

A number after MIC or MFC names an inhibition level or a share of isolates.

smiles,tested at,measure,strain or isolate,read by,cell line,mutations,value
N#CC(C#N)=Cc1ccc(Cl)o1,,MIC bound,H37Rv,BACTEC,,,>12.5 µg/mL
O=C1CC(c2ccccc2Br)Oc2ccccc21,,EC50,H37Rv,,,,>12.5 µg/mL
CCCCC(CC)CN1CN(CC(CC)CCCC)CC(C)(NCCN[C@H]2C[C@H]3C[C@@H]([C@@H]2C)C3(C)C)C1,,MIC,,,,,50 µM
CCCC1CCc2c(sc(N)c2C#N)C1,,MIC,H37Rv,resazurin,,,200 µM
Cc1c(C(=O)O)nn(-c2ccc(F)cc2F)c1-c1ccc(Cl)cc1,,MIC90,H37Rv,agar,,,6.25 µg/mL
C=CC(C)(O)CCC=C(C)C,6.25 µg/mL,inhibition,H37Rv,resazurin,,,10%
CCOC(=O)C1=C(Nc2ccc(F)cc2)C(=O)N(CC)C1,12.8 µg/mL,inhibition,H37Rv,BACTEC,,,11%
O=c1cc(-c2ccc(O)c(-c3c(O)cc4oc(-c5ccc(O)cc5)cc(=O)c4c3O)c2)oc2cc(O)cc(O)c12,,EC50,H37Rv,,,,>12.5 µg/mL
O=C1NC(=S)N/C1=C/c1cccc(O)c1,6.25 µg/mL,inhibition,H37Rv,BACTEC,,,11%
COc1ccc2c(c1)OC(c1ccccc1)CC2=O,12.5 µg/mL,inhibition,H37Rv,,,,0%
C=C[C@@](C)(CC[C@H]1C(=C)CC[C@H]2C(C)(C)CCC[C@]12C)OC(C)=O,6.25 µg/mL,inhibition,H37Rv,resazurin,,,8%
O=C1CCCC2=C1C(c1cccc([N+](=O)[O-])c1)C1=C(CCCC1=O)O2,,MIC,H37Ra,resazurin,,,≥0.4 µg/mL
CSC(=S)N/N=C(/C)c1ccco1,,MIC bound,H37Rv,BACTEC,,,≤128 µg/mL
O=C(Cc1csc2nc(-c3ccc(Cl)cc3)cn12)NN=C1CCCCC1,,MIC,H37Rv,,,,>6.25 µg/mL
C/C(CC(=O)Nc1ccc(Cl)c(Cl)c1)=N\NC(=O)C[N+](C)(C)C.[Cl-],12.5 µg/mL,inhibition,H37Rv,BACTEC,,,-3%
CC1CN(c2cc3c(cc2F)c(=O)c(C(=O)O)cn3C(C)(C)C)CCN1,,MIC,,,,,0.39 µg/mL
O=C1NC(=S)N/C1=C/c1ccc(Cl)c(Cl)c1,,EC50,H37Rv,BACTEC,,,<6.25 µg/mL
Cn1nnc2c1C(=O)c1ccccc1C2=O,,MIC,H37Rv,BACTEC,,,6.26 µg/mL
COc1ccc(/C=C/C(=O)c2ccc(Cl)cc2O)cc1,,EC50,,,,,<12.5 µg/mL
C/C(=C1\NC(=S)NC1=O)c1ccc(Cl)cc1,6.25 µg/mL,inhibition,H37Rv,BACTEC,,,0%
CC1CCC/C(=N\NC(=O)Cc2csc3nc(-c4ccc(Cl)cc4)cn23)C1,6.25 µg/mL,inhibition,H37Rv,,,,99%
CC(C)c1ccc2c(c1)CC[C@H]1[C@](C)(CNCCN[C@H](CO)Cc3ccc(Cl)cc3)CCC[C@]21C,,MIC,,,,,25 µM
C=C1C(=O)[C@@]23C[C@@H]1C[C@H](O)[C@@H]2C1(CCC[C@@](C)(COC(C)=O)C1C=O)COC3=O,,MIC bound,H37Rv,BACTEC,,,>12.5 µg/mL
CC1(C)N=C(N)N=C(N)N1OCCCOc1cc(Cl)c(Cl)cc1Cl,,MIC90,H37Rv,resazurin / fluorescence,,Overexpressing DHFR,15–30 µM
CCC1CCC2(CC1)SC(C)C(=O)N2NC(=O)Cc1csc2nc(-c3ccccc3)cn12.O.O,,MIC,H37Rv,,VERO,,3.13 µg/mL
CC(C)=CCC/C(C)=C/COC1CCCCO1,6.25 µg/mL,inhibition,H37Rv,resazurin,,,8%
O=C1CCCC2=C1C(c1cccc3ccccc13)C1=C(CCCC1=O)O2,,MIC,H37Ra,resazurin,,,≥0.4 µg/mL
O=C1NC(=S)N/C1=C/c1ccc([N+](=O)[O-])cc1,6.25 µg/mL,inhibition,H37Rv,BACTEC,,,58%
CC1CN(c2c(F)cc3c(=O)c(C(=O)O)cn(C4CC4)c3c2Br)CCN1,,MIC,,,,,0.78 µg/mL
Cc1c(C(=O)NNC(=O)c2ccncc2)nn(-c2ccc(Cl)cc2Cl)c1-c1ccccc1,,MIC90,H37Rv,agar,,,25 µg/mL
CC(C)c1ccc2c(c1)CC[C@H]1[C@](C)(CNCCNCc3ccco3)CCC[C@]21C,,MIC,,,,,50 µM
O=C(CC(=O)N1N=C(c2ccccc2)C(N=Nc2ccc(Cl)cc2)C1=O)Nc1ccccc1Cl,,MIC bound,H37Rv,BACTEC,,,>12.8 µg/mL
Cc1cc(C)cc(OCCCON2C(N)=NC(N)=NC2(C)C)c1,,MIC90,H37Rv,resazurin / fluorescence,,,1 µM
CC(=O)OC/C=C(\C)CC/C=C(\C)CC/C=C(\C)CCC=C(C)C,6.25 µg/mL,inhibition,H37Rv,resazurin,,,98%
COC(=O)/C1=C/c2c([nH]c3ccc(I)cc23)/C(C(=O)OC)=C\c2c1[nH]c1ccc(I)cc21,,EC50,H37Rv,resazurin / absorbance,,,3.89 µM
CC(C)=CCC1C(=O)C(CC=C(C)C)(CC=C(C)C)C(O)C(C(=O)C(C)C)C1O,,MIC,Isolate K,,,,30.5 µg/mL
CCOC(=O)C(=O)N=Nc1nc2c(O)c3ccccc3c(O)c2s1,12.5 µg/mL,inhibition,H37Rv,BACTEC,,,99%
Cc1c(C(=O)N2CCN(C)CC2)nn(-c2ccc(Cl)cc2Cl)c1-c1ccc(Cl)cc1,,MIC90,H37Rv,agar,,,25 µg/mL
COC(=O)C(Cc1ccccc1)NC(=O)c1cccc2c1Oc1c(cccc1C(=O)NC(Cc1ccccc1)C(=O)OC)S2,12.5 µg/mL,inhibition,H37Rv,BACTEC,,,11%
O=C1NC(=S)N/C1=C/c1cc(F)cc(F)c1,6.25 µg/mL,inhibition,H37Rv,BACTEC,,,55%
CC1SC2(CCCCC2)N(NC(=O)Cc2csc3nc(-c4ccc(Cl)cc4)cn23)C1=O,6.25 µg/mL,inhibition,H37Rv,,,,91%
COc1ccc(/C=C/C(=O)c2c(O)cccc2OC)cc1,,EC50,,,,,<12.5 µg/mL
CCCCC(CC)CN1CN(CC(CC)CCCC)CC(C)(NCCNCCc2ccc(OC)cc2)C1,,MIC,,,,,12.5 µM
Cc1c(C(=O)O)nn(-c2ccc(Cl)cc2Cl)c1-c1ccccc1,,MIC90,H37Rv,agar,,,6.25 µg/mL
Cc1c(Cc2ccccc2Br)cnc2nc(N)nc(N)c12,,MIC90,H37Rv,resazurin / fluorescence,,,1.25 µM
O=S(=O)([O-])Oc1cc2c(c(OS(=O)(=O)[O-])c1)CC(OS(=O)(=O)[O-])C(c1ccc(OS(=O)(=O)[O-])c(OS(=O)(=O)[O-])c1)O2.[K+].[K+].[K+].[K+].[K+],,MIC bound,H37Rv,BACTEC,,,>12.5 µg/mL
CC1CCC/C(=N\NC(=O)Cc2csc3nc(-c4ccccc4)cn23)C1,,MIC,H37Rv,,,,>6.25 µg/mL
CC(=O)Nc1cccc(/C=C/C(=O)c2ccccc2O)c1,12.5 µg/mL,inhibition,,,,,0%
CCOC(=O)Nn1c(C)c(C(N)=O)c(C(=O)OC)c1C,6.25 µg/mL,inhibition,H37Rv,resazurin,,,37%
CCN1CCN(c2c(F)cc3c(=O)c(C(=O)O)cn(C4CC4)c3c2OC)CC1,,MIC,,,,,0.39 µg/mL
CCCC(NCCNC(CCC)C(=O)O)C(=O)O,,MIC bound,H37Rv,resazurin,,,>6.25 µg/mL
OCc1ccccc1Sc1ccccc1CNCCNCc1ccc(C(F)(F)F)cc1,,MIC,,,,,25 µM
O=C(/C=C/c1ccc(O)cc1)OC[C@@H]1O[C@H](OC(=O)/C=C/c2ccc(O)cc2)[C@@H](O)[C@@H](O)[C@H]1O,,MIC,ATCC 25177,broth dilution / resazurin,,,63 µg/mL
CO[C@H]1/C=C/O[C@@]2(C)Oc3c(C)c(O)c4c(O)c(c(/C=N/N5CCN(C)CC5)c(O)c4c3C2=O)NC(=O)/C(C)=C\C=C\[C@H](C)[C@H](O)[C@@H](C)[C@@H](O)[C@@H](C)[C@H](OC(C)=O)[C@@H]1C,,MIC,Isolate I,,,,>2 µg/mL
Cc1ccc(C2C3=C(CCCC3=O)OC3=C2C(=O)CCC3)cc1,,MIC,H37Ra,resazurin,,,≥0.4 µg/mL
CC1(C)NC(N)N=C(N)N1OCCCOc1ccc2ccccc2c1,,MIC90,H37Rv,resazurin / fluorescence,,Overexpressing DHFR,23.4 µM
O=C1CC(c2ccccc2)Oc2cc(Cl)ccc21,12.5 µg/mL,inhibition,,,,,0%
Oc1c(Cl)cc(Cl)cc1C1N2CCCCC2C2c3cccn3-c3ccccc3N21,,MIC bound,H37Rv,resazurin,,,>6.25 µg/mL
COc1ccc(CCNCCNCC23CC4CC(CC(C4)C2)C3)cc1OC,,MIC,,,,,6.25 µM
Cc1ccc(-n2cc(-c3ccc(Cl)cc3)c(C#N)c2N)cc1,,MIC,H37Rv,resazurin,,,12.5 µg/mL
Cc1c(C(=O)NNC(=O)c2ccncc2)nn(-c2ccc(Cl)cc2Cl)c1-c1ccc(Cl)cc1,,MIC90,H37Rv,agar,,,12.5 µg/mL
Cc1c(C(=O)CC(=O)C(=O)Nc2ccc(Cl)c(Cl)c2)[n+](=O)c2ccccc2n1[O-],,MIC,H37Rv,BACTEC,,,≥12.5 µg/mL
C[C@@H]1[C@H]2C[C@@H](C[C@H]1NCCNC1C3CC4CC(C3)CC1C4)C2(C)C,,MIC,,,,,12.5 µM
Clc1cc2nc3[nH]c4ccccc4c3nc2cc1Cl,,MIC bound,H37Rv,resazurin,,,>6.25 µg/mL
O=C1NC(=S)N/C1=C/c1ccc(Br)cc1,,EC50,H37Rv,BACTEC,,,<6.25 µg/mL
O=C1c2ccccc2OC(c2ccccc2)C1I,12.5 µg/mL,inhibition,,,,,0%
O=C1NC(=S)NC1=C1CCCCC1,,EC50,H37Rv,BACTEC,,,>6.25 µg/mL
O=C1CC2C(=O)N(Cc3ccccc3)C1C(S(=O)(=O)c1ccccc1)C2S(=O)(=O)c1ccccc1,6.25 µg/mL,inhibition,H37Rv,resazurin,,,7%
COC/C=C(\C)CC/C=C(\C)CC/C=C(\C)CCC=C(C)C,6.25 µg/mL,inhibition,H37Rv,resazurin,,,6%
O=C(N[C@@H](Cc1ccccc1)C(=O)O)c1ccncc1,6.25 µg/mL,inhibition,H37Rv,resazurin,,,0%
Cc1c(C(=O)O)nn(-c2ccccc2)c1-c1ccc(Cl)cc1,,MIC90,H37Rv,agar,,,12.5 µg/mL
O=C1NC(=S)N/C1=C/c1cccc(OCc2ccc(Cl)cc2)c1,,EC50,H37Rv,BACTEC,,,<6.25 µg/mL
CCc1c(Cl)c(O)c(Cl)c(O)c1C(=O)O[C@H]1[C@H](O)[C@H](OC)[C@H](OC/C2=C\C=C\CC(O)/C(C)=C/C(CC)C(O[C@@H]3OC(C)(C)[C@@H](OC(=O)C(C)C)[C@H](O)[C@@H]3O)/C(C)=C/C(C)=C/CC(C(C)O)OC2=O)O[C@@H]1C,,MIC50,H37Rv,broth dilution,,,0.085 µM
CCC1(O)C(=O)OCc2c1cc1n(c2=O)Cc2c-1nc1ccccc1c2OC,6.25 µg/mL,inhibition,H37Rv,resazurin,,,37%
C=CC(C)(CC/C=C(\C)CC/C=C(\C)CCC=C(C)C)OC(C)=O,6.25 µg/mL,inhibition,H37Rv,resazurin,,,75%
CO[C@H]1/C=C/O[C@@]2(C)Oc3c(C)c(O)c4c(O)c(c(/C=N/N5CCN(C)CC5)c(O)c4c3C2=O)NC(=O)/C(C)=C\C=C\[C@H](C)[C@H](O)[C@@H](C)[C@@H](O)[C@@H](C)[C@H](OC(C)=O)[C@@H]1C,,EC50,H37Rv,resazurin / absorbance,,,0.55 µM
C/C(=C\CO)CC/C=C(\C)CCC1CCCCC1,6.25 µg/mL,inhibition,H37Rv,resazurin,,,49%
CC1CCC2(CC1)SCC(=O)N2NC(=O)Cc1csc2nc(-c3ccccc3)cn12.O,,MIC,H37Rv,,,,<6.25 µg/mL
O=C1CCCC2=C1C(c1cccs1)C1=C(CCCC1=O)O2,,MIC,H37Ra,resazurin,,,≥3.125 µg/mL
CC(C)=CCC/C(C)=C/CC/C(C)=C/CC/C(C)=C/CO,,MIC,H37Rv,resazurin,,,1.56 µg/mL
CCCCCCCCCCCNCCN[C@H]1C[C@@H]1c1ccccc1,,MIC,,,,,50 µM
Cc1c(C(=O)NN2CCCCC2)nn(-c2ccc(Cl)cc2Cl)c1-c1ccccc1,,MIC90,H37Rv,agar,,,12.5 µg/mL
NC(=O)C1=C[C@H]2[C@H]3C=C[C@@]2(O)C(=O)O[C@@H]3O1,,MIC,H37Rv,,VERO,,6.25 µg/mL
c1ccc(C(CCNCCNCC(c2ccccc2)c2ccccc2)c2ccccc2)cc1,,MIC,,,,,37.5 µM
CC1(C)N=C(N)N=C(N)N1OCCSCc1cc(Cl)sc1Cl,,MIC90,H37Rv,resazurin / fluorescence,,,0.5 µM
O=C(Cc1csc2nc(-c3ccccc3)cn12)NN=C1CCCC1,,MIC,H37Rv,,,,>6.25 µg/mL

Repeating the first 6 entries:

smiles,tested at,measure,strain or isolate,read by,cell line,mutations,value
N#CC(C#N)=Cc1ccc(Cl)o1,,MIC bound,H37Rv,BACTEC,,,>12.5 µg/mL
O=C1CC(c2ccccc2Br)Oc2ccccc21,,EC50,H37Rv,,,,>12.5 µg/mL
CCCCC(CC)CN1CN(CC(CC)CCCC)CC(C)(NCCN[C@H]2C[C@H]3C[C@@H]([C@@H]2C)C3(C)C)C1,,MIC,,,,,50 µM
CCCC1CCc2c(sc(N)c2C#N)C1,,MIC,H37Rv,resazurin,,,200 µM
Cc1c(C(=O)O)nn(-c2ccc(F)cc2F)c1-c1ccc(Cl)cc1,,MIC90,H37Rv,agar,,,6.25 µg/mL
C=CC(C)(O)CCC=C(C)C,6.25 µg/mL,inhibition,H37Rv,resazurin,,,10%

Inhibition is in % at the dose shown (toxicity tests: loss of growth or viability). Rows are shuffled and stem from different studies. a–b is a range or a potency band. MIC bound: limit read from a one-dose screen. ECn: concentration that inhibits the pathogen or its effect by n%. An empty or dashed field is not shown.